Laboratory results published in patent US11312727B1, “Macrocyclic flu endonuclease inhibitors” (Janssen BioPharma, Inc., priority 2018, dated 2022).

Key:
[1] = tested on: Influenza strain A549 A/WSN/33 (H1N1); experiment: Influenza antiviral assay (A549 cells infected with A/WSN/33 (H1N1), neuraminidase fluorescence read-out); conditions: read-out: A549_A(H1N1) EC50, influenza A/WSN/33 (H1N1), 20 hours incubation
[2] = tested on: Human lung carcinoma A549 cells; experiment: Cytotoxicity of uninfected parallel cultures (CellTiter-Glo)

Row | SMILES | EC50 [1] | CC50 [2]
1 | O=C1c2c(O)c(=O)ccn2N2CN1CC/C=C\CCOc1ccccc1C2c1ccccc1 (centres unmarked) | 47 nM | > 2000 nM
2 | O=C1c2c(O)c(=O)ccn2N2CN1C/C=C\COc1cc(F)ccc1C2c1ccccc1 (single isomer, unassigned) [Compound 42A] | > 1000 nM | > 2000 nM
3 | O=C1c2c(O)c(=O)ccn2N2CN1C/C=C\COc1cc(F)ccc1C2c1ccccc1 (single isomer, unassigned) [Compound 42B] | 6 nM | > 2000 nM
4 | O=C1c2c(O)c(=O)ccn2N2CN1CCC/C=C/Cc1ccccc1C2c1ccccn1 (centres unmarked) | 142 nM | > 20000 nM
5 | O=C1c2c(O)c(=O)ccn2N2CN1C1(/C=C/COc3c(ccc(F)c3F)C2c2ccccn2)CCC1 (centres unmarked) | 2.9 nM | > 100 nM
6 | O=C1c2c(O)c(=O)ccn2N2CN1C/C=C\COc1ccccc1C2c1ccccn1 (single isomer, unassigned) [Compound 20B] | 10000 nM | > 2000 nM
7 | O=C1c2c(O)c(=O)ccn2N2CN1C/C=C\COc1ccccc1C2c1ccccn1 (single isomer, unassigned) [Compound 20A] | 93 nM | > 2000 nM
